PubChem BioAssay AID504761, Drosophila RNAi Screening Center – 2011
In all, the deposit lists about 22,000 reagents; shown is a random part of those with a known target gene and a result. Over the whole deposit, 116 (0.52%) got an active call. 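Calls depend on retest data that are not deposited; infection was ranked per plate without normalising between plates; the unit of the infection score is not given.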 The raw values are shown without normalisation. Further read-outs or replicates are left out here. Not given: the amount of reagent, the time to read-out.

- Test: 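Genome-wide fly cell screen for genes dengue virus requires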 (primary screen)
- Cells: D.Mel-2 cells from Drosophila
- Knock-down reagent: long dsRNA against Drosophila genes
- Challenge: infection with dengue virus type 2; dose and infection time not stated
- Measurement: 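Cells stained for dengue envelope protein and imaged; percent of infected cells per well on duplicate plates, ranked by infection, with stained nuclei counted for cell number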
- Direction: infection score: higher = more virus-infected cells; cell count: higher = more cells in the well
- Rule for the call: 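Very low infection ranking in both replicate wells (chance probability at most 0.065), then a retest showing infection dropped 1.5-fold or more at p below 0.05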
- Meaning of the calls: active = confirmed: knock-down lowers infection; inactive = not picked or not confirmed

lncRNA:CR30055 [DRSC22439]
- infection score, replicate 1: 2.65
- cell count, replicate 1: 6003
- outcome: inactive

lncRNA:CR30055 [DRSC26506]
- infection score, replicate 1: 2.37
- cell count, replicate 1: 6068
- outcome: inactive

CG33460 [DRSC05570]
- infection score, replicate 1: 1.7
- cell count, replicate 1: 6488
- outcome: inactive

Bgb [DRSC08148]
- infection score, replicate 1: 8.85
- cell count, replicate 1: 2022
- outcome: inactive

Bgb [DRSC25855]
- infection score, replicate 1: 0.62
- cell count, replicate 1: 6328
- outcome: inactive

CG31183 [DRSC14403]
- infection score, replicate 1: 12.3
- cell count, replicate 1: 5445
- outcome: inactive

CG31183 [DRSC15554]
- infection score, replicate 1: 7.3
- cell count, replicate 1: 6383
- outcome: inactive

Copied from the listing (2 entries):
lncRNA:CR30055 [DRSC22439]
- infection score, replicate 1: 2.65
- cell count, replicate 1: 6003
- outcome: inactive

lncRNA:CR30055 [DRSC26506]
- infection score, replicate 1: 2.37
- cell count, replicate 1: 6068
- outcome: inactive

More records follow:
pasi1 [DRSC16299]
- infection score, replicate 1: 4.79
- cell count, replicate 1: 6093
- outcome: inactive

pasi1 [DRSC22385]
- infection score, replicate 1: 2.09
- cell count, replicate 1: 6472
- outcome: inactive

pasi1 [DRSC26688]
- infection score, replicate 1: 0.74
- cell count, replicate 1: 6505
- outcome: inactive

CG6978 [DRSC18409]
- infection score, replicate 1: 3.26
- cell count, replicate 1: 5676
- outcome: inactive

e(y)3 [DRSC19450]
- infection score, replicate 1: 26.5
- cell count, replicate 1: 6061
- outcome: inactive

e(y)3 [DRSC23698]
- infection score, replicate 1: 11.6
- cell count, replicate 1: 5266
- outcome: inactive
